PubChem BioAssay AID1085 (Emory University Molecular Libraries Screening Center, 2008)
The entries are a selection whose mix differs from that of the whole data set. Some salts and complexes are drawn in separate pieces, as the source files them; their charges need not balance. The source made the active and inactive calls. No stated cut-off is given here; in the data, active means inhibition above about 50%; inactive means the rest.

Protein sequences, listed by entry. Tags and fused reporters are not part of them.
UniProt Q1HVG2, whole entry: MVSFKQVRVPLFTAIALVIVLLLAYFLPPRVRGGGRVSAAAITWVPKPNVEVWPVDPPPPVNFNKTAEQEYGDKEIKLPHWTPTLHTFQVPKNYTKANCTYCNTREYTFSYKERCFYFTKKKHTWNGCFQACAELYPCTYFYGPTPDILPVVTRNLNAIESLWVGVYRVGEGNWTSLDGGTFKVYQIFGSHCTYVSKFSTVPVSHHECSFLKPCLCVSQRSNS

What follows are compounds tested against Glycoprotein 42 (Epstein-Barr virus (strain AG876)) (UniProt Q1HVG2) (assay: Epstein-Barr virus gp42 inhibitors, primary screen, biochemical, uHTS, fluorescence polarization (AID 1085)). Conditions: Fluorescence polarization binding assay, mP read-out; hits give high values; tested at 21.74 µM.

Structure (SMILES)	inhibition
COc1ccc(OP(C)(=O)Nc2ccc(Br)cc2)cc1 (stereo not drawn)	inactive: -4.82%
CCN(CC)CC(O)COC(=O)C(O)(c1ccccc1)C1CCCCC1 (stereo not drawn)	inactive: -4.72%
CCc1ccc(OP(C)(=O)Nc2cccnc2)cc1 (stereo not drawn)	inactive: -10.7%
CP(=O)(Oc1ccccc1)N1CCOC1=O (stereo not drawn)	inactive: 2.51%
O=C(OCCCN1CCCC1)C(O)(c1ccccc1)C1CCCCC1 (stereo not drawn)	inactive: -12.4%
CP(=O)(Nc1ccc(Cl)cc1)Oc1ccc(F)cc1 (stereo not drawn)	inactive: -8.02%
CC(C)(C)c1ccc(OP(C)(=O)O)cc1	inactive: -12.7%
COc1ccccc1OP(C)(=O)Nc1ccccc1Br (stereo not drawn)	inactive: -17.9%
CN(C)C(=O)c1c([N+](=O)[O-])cc([N+](=O)[O-])cc1[N+](=O)[O-]	inactive: 0.77%
CP(=O)(OC12CC3CC(CC(C3)C1)C2)OC12CC3CC(CC(C3)C1)C2	inactive: -40.2%
CCOC(=O)c1ccc(NP(C)(=O)Oc2ccc(Cl)cc2)cc1 (stereo not drawn)	inactive: -6.69%
Cc1cc(C)cc(OP(C)(=O)Nc2cccc(C(F)(F)F)c2)c1 (stereo not drawn)	inactive: -6.57%
COc1ccc(OP(C)(=O)Nc2ccccc2Br)cc1 (stereo not drawn)	inactive: -7.66%
COc1ccccc1OP(C)(=O)Nc1ccc(C)c(C)c1 (stereo not drawn)	inactive: -15.3%
Cc1nc2ccc3ccccc3c2o1.O=[N+]([O-])c1cc([N+](=O)[O-])c(O)c([N+](=O)[O-])c1	inactive: 12.3%
CP(=O)(OCCOc1ccccc1)OCCOc1ccccc1	inactive: -0.77%
CP(=O)(Nc1ccc(Cl)cc1Cl)Oc1ccccc1 (stereo not drawn)	inactive: -1.28%
COc1ccccc1OP(C)(=O)Nc1ccc(Br)cc1 (stereo not drawn)	inactive: -8.63%
CN(C)CCOC(=O)C(O)(c1ccccc1)C1CCCC1 (stereo not drawn)	inactive: -15.3%
COc1ccc(OP(C)(=O)Nc2ccccn2)cc1 (stereo not drawn)	inactive: -17.5%
O=[N+]([O-])c1cc([N+](=O)[O-])c(Nc2ccccn2)c([N+](=O)[O-])c1	inactive: 0.57%

Structure (SMILES)	inhibition
Cc1c(NP(C)(=O)Oc2ccc(C(C)C)cc2)c(=O)n(-c2ccccc2)n1C (stereo not drawn)	inactive: -19.3%
CCc1ccc(OP(C)(=O)O)cc1	inactive: 32.7%
COc1ccccc1OP(C)(=O)Nc1ccc(C)cc1C (stereo not drawn)	inactive: -8.27%
CP(=O)(Nc1ccccn1)Oc1ccccc1 (stereo not drawn)	inactive: 3.68%
CC(C)c1ccc(OP(C)(=O)Nc2ccc(SC(F)(F)F)cc2)cc1 (stereo not drawn)	inactive: -1.08%
CP(=O)(Nc1ccccc1F)Oc1ccccc1 (stereo not drawn)	inactive: 0.58%
O=C(OCCN1CCN(CCOCc2ccccc2)CC1)C(O)(c1ccccc1)c1ccccc1	inactive: -8.73%
O=C(OC1CN2CCC1CC2)c1ccc([N+](=O)[O-])cc1 (stereo not drawn)	inactive: -9.73%
COc1ccc2c(c1O)-c1c(O)c(OC)cc3c1[C@H](C2)[N+](C)(C)CC3.O=[N+]([O-])c1cc([N+](=O)[O-])c([O-])c([N+](=O)[O-])c1[O-]	inactive: 0.04%
COc1ccc(OP(C)(=O)Nc2ccc(SC(F)(F)F)cc2)cc1 (stereo not drawn)	inactive: -9.09%
CCOC(=O)c1ccc(NP(C)(=O)Oc2ccc(F)cc2)cc1 (stereo not drawn)	inactive: 19.9%
CCN(CC)CCCOC(=O)C(O)(c1ccccc1)C1CCCCC1 (stereo not drawn)	inactive: -0.31%
CCCCCOc1ccc(NP(C)(=O)Oc2ccc(Cl)cc2Cl)cc1 (stereo not drawn)	inactive: -11.7%
CP(=O)(Nc1ccccc1)Oc1ccc(F)cc1 (stereo not drawn)	inactive: -8.04%
COc1ccc(OP(C)(=O)Nc2cccc(Br)c2)cc1 (stereo not drawn)	inactive: -4.56%
COc1ccc(NP(C)(=O)Oc2ccccc2OC)cc1 (stereo not drawn)	inactive: 5.09%
CN(C)CCOC(=O)C(O)(c1ccccc1)C1CCCCC1 (stereo not drawn)	inactive: -17.9%
O=[N+]([O-])c1cc([N+](=O)[O-])c(NCC2CCS(=O)(=O)C2)c([N+](=O)[O-])c1 (stereo not drawn)	inactive: 1.6%
Cc1cc(-c2cccc3ccccc23)c(C)cn1.O=[N+]([O-])c1cc([N+](=O)[O-])c(O)c([N+](=O)[O-])c1	inactive: -7.11%
O=[N+]([O-])c1ccc(OP2(=O)COCCO2)cc1 (stereo not drawn)	inactive: -15.3%
CP(=O)(Nc1ccc(SC(F)(F)F)cc1)Oc1ccc(F)cc1 (stereo not drawn)	inactive: -12.8%

Structure (SMILES)	inhibition
CCOP(C)(=S)SCC(=O)NC(C)(CC)C(=O)O (stereo not drawn)	inactive: 8.83%
CP(=O)(Nc1ccc2c(c1)OCCO2)Oc1ccccc1 (stereo not drawn)	inactive: -27.6%
Cc1ccccc1NP(C)(=O)Nc1ccccc1C	inactive: -17.8%
O=[N+]([O-])c1cc([N+](=O)[O-])c(-n2nnc3ccccc32)c([N+](=O)[O-])c1	inactive: -2.14%
Cc1nc2ccc3ccccc3c2s1.O=[N+]([O-])c1cc([N+](=O)[O-])c(O)c([N+](=O)[O-])c1	inactive: -28.6%
CCOC(=O)C(CC)C1=NC(C)(C)Cc2ccccc21.O=[N+]([O-])c1cc([N+](=O)[O-])c(O)c([N+](=O)[O-])c1 (stereo not drawn)	inactive: -15.5%
O=[N+]([O-])c1cc([N+](=O)[O-])c(Nc2nnnn2CCO)c([N+](=O)[O-])c1	inactive: -6.49%
CN1CCCCC1COC(=O)C1(O)c2ccccc2CCc2ccccc21 (stereo not drawn)	inactive: -13.5%
COc1ccccc1OP(C)(=O)Nc1c(C)cccc1C (stereo not drawn)	inactive: -12.2%
CP(=O)(Nc1ccc(SC(F)(F)F)cc1)Oc1ccccc1 (stereo not drawn)	inactive: -0.39%
CCCOc1ccc(NP(C)(=O)Oc2ccc(Cl)cc2)cc1 (stereo not drawn)	inactive: -6.73%
O=C(O)c1cccc(Nc2c([N+](=O)[O-])cc([N+](=O)[O-])cc2[N+](=O)[O-])c1	inactive: -25.1%
CC1=NCCc2c1[nH]c1ccccc21.O=[N+]([O-])c1cc([N+](=O)[O-])c(O)c([N+](=O)[O-])c1	inactive: -7.19%
COc1ccccc1OP(C)(=O)Nc1cccc(Br)c1 (stereo not drawn)	inactive: -10.9%
Cc1cc(C)cc(OP(C)(=O)Nc2ccc(C)cc2C)c1 (stereo not drawn)	inactive: -6.38%
CCOC(=O)c1ccc(NP(C)(=O)Oc2cc(C)cc(C)c2)cc1 (stereo not drawn)	inactive: 0.46%
CP(=O)(Nc1cccc(Br)c1)Oc1ccccc1 (stereo not drawn)	inactive: -2.98%
Cc1cc(C)cc(OP(C)(=O)Nc2ccccn2)c1 (stereo not drawn)	inactive: -7.84%
Cc1ccc(C)c(NP(C)(=O)Oc2ccccc2)c1 (stereo not drawn)	inactive: -21%
CCN(CC)CCCOC(=O)C(O)(c1ccccc1)c1ccccc1	inactive: -6.52%
Cc1cccc(C)c1OP(C)(N)=O (stereo not drawn)	inactive: -13.5%

Structure (SMILES)	inhibition
CC(C)(C)c1ccc(OP(C)(=O)Nc2ccc(SC(F)(F)F)cc2)cc1 (stereo not drawn)	inactive: 4.31%
O=[N+]([O-])c1ccc2c(c1)C=Nc1ccccc1O2	inactive: -10.3%
CCOC(=O)c1ccc(NP(C)(=O)Oc2ccccc2)cc1 (stereo not drawn)	inactive: -11.1%
Cc1ccc(NP(C)(=O)Oc2ccccc2)c(C)c1 (stereo not drawn)	inactive: 3.76%
COc1ccccc1OP(C)(=O)Nc1ccc(C)cc1 (stereo not drawn)	inactive: -33.4%
COc1ccc(OP(C)(=O)Nc2cccc(F)c2)cc1 (stereo not drawn)	inactive: -13.6%
COc1ccccc1OP(C)(=O)Nc1cc(Cl)ccc1C (stereo not drawn)	inactive: 1.08%
Cc1cc(C)cc(OP(C)(N)=O)c1 (stereo not drawn)	inactive: -6.86%
CP(=S)(Nn1cnnc1)Oc1ccccc1 (stereo not drawn)	inactive: -4.81%
COc1ccccc1OP(C)(=O)Nc1ccccc1 (stereo not drawn)	inactive: -5.19%
CP(=O)(Nc1ccccc1Br)Oc1ccccc1 (stereo not drawn)	inactive: 0.77%
CP(=O)(Oc1ccccc1)OC(c1ccccc1)C(F)(F)F (stereo not drawn)	inactive: -4.17%
CP(=O)(Nc1ccc(SC(F)(F)F)cc1)Oc1ccc(Cl)cc1 (stereo not drawn)	inactive: -4.13%
Cc1cccc(C)c1OP(C)(=O)Nc1ccc(SC(F)(F)F)cc1 (stereo not drawn)	inactive: -10.2%
Cc1cc(C)cc(OP(C)(=O)Nc2ccc(SC(F)(F)F)cc2)c1 (stereo not drawn)	inactive: -1.25%
CCc1ccc(OP(C)(=O)N2CCN(c3ccc([N+](=O)[O-])cc3)CC2)cc1 (stereo not drawn)	inactive: -5.06%
CP(=O)(NC(=O)Nc1ccccc1)Oc1ccccc1 (stereo not drawn)	inactive: -23.6%
CCOP(C)(=S)SCC(=O)NC(C)C(=O)O (stereo not drawn)	inactive: -26.9%
CCOC(=O)c1ccc(NP(C)(=O)Oc2ccc(OC)cc2)cc1 (stereo not drawn)	inactive: -7.33%
CP(=O)(Nc1ccccn1)Oc1ccc(Cl)cc1 (stereo not drawn)	inactive: -12.7%
